In patent US20230234994A1, “Vasopressin-2 receptor antagonist peptides and uses thereof” (COMMISSARIAT A L ENERGIE ATOMIQUE ET AUX ENERGIES …, published 2023):

Key:
Assay in all cases: cell-based or functional assay
Caspase 10 = molecular target: T1, Caspase 10 (Human, UniProt Q92851 220-479)
T1 sequence: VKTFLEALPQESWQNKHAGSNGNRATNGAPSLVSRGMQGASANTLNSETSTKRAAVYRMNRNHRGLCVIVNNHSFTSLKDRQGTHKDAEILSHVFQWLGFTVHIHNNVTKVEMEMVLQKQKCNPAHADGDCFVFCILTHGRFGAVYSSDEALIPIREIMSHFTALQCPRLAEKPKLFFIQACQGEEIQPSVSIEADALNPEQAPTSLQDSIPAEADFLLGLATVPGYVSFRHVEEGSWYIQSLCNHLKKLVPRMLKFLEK

Tryptase beta 2 = Tryptase beta 2 (Human, UniProt P20231 31-275)
Papain = molecular target: T2, Papain (Papaya, UniProt P00784 134-345)
T2 sequence: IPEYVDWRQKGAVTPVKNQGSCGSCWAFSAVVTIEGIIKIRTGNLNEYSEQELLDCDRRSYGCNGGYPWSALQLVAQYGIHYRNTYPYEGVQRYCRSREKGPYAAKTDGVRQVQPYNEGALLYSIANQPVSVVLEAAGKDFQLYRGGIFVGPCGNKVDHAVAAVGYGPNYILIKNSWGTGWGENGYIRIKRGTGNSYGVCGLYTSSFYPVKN

Trypsin = Trypsin (Bovine, UniProt P00760 24-246)
Caspase 11 = molecular target: T3, Caspase 11 (Mouse, UniProt P70343 102-373)
T3 sequence: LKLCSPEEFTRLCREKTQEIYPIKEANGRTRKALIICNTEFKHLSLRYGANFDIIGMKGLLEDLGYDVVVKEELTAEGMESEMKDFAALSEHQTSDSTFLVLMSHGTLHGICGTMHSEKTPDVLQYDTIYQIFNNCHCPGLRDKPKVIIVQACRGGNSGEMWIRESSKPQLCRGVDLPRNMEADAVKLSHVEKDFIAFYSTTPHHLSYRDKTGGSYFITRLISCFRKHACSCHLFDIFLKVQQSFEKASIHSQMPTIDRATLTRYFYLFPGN

Caspase 2 = molecular target: T4, Caspase 2 (Human, UniProt P42575 150-435)
T4 sequence: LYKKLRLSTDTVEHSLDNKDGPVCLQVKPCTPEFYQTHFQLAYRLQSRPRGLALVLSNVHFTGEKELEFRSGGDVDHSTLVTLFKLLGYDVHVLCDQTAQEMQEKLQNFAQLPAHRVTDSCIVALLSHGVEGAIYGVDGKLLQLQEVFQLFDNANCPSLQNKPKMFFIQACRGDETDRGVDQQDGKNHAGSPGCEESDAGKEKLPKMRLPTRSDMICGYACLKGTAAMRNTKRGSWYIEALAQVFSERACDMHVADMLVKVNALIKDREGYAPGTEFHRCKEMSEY

Caspase 9 = molecular target: T5, Caspase 9 (Human, UniProt P55211 131-416)
T5 sequence: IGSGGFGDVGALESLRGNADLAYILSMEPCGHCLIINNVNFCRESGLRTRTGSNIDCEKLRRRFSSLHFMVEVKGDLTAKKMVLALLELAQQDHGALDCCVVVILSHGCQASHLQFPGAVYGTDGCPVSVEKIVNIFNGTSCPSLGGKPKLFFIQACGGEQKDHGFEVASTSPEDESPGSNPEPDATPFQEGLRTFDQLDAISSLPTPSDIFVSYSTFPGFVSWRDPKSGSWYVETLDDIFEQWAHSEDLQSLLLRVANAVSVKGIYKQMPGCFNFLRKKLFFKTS

Caspase 1 = molecular target: T6, Caspase 1 (Human, UniProt P29466 120-404)
T6 sequence: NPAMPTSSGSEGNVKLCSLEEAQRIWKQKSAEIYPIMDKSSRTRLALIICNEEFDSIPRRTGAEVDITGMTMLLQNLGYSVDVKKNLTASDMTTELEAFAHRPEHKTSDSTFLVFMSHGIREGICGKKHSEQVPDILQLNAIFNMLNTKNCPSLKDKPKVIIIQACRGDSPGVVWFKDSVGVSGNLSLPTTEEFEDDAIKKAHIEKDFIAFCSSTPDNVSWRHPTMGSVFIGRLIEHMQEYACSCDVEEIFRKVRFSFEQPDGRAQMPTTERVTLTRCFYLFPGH

Cathepsin G = molecular target: T7, Cathepsin G (Human, UniProt P08311 21-244)
T7 sequence: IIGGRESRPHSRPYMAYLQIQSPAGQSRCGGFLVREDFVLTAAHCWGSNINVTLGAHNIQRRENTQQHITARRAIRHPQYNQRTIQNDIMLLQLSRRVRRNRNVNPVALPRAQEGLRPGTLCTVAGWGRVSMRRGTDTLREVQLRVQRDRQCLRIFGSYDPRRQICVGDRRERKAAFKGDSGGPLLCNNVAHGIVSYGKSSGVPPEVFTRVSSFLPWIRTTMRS

Chymotrypsin = Chymotrypsin (Bovine, UniProt P00766 1-245)
Matriptase 2 = molecular target: T8, Matriptase 2 (Human, UniProt Q8IU80 78-811)
T8 sequence: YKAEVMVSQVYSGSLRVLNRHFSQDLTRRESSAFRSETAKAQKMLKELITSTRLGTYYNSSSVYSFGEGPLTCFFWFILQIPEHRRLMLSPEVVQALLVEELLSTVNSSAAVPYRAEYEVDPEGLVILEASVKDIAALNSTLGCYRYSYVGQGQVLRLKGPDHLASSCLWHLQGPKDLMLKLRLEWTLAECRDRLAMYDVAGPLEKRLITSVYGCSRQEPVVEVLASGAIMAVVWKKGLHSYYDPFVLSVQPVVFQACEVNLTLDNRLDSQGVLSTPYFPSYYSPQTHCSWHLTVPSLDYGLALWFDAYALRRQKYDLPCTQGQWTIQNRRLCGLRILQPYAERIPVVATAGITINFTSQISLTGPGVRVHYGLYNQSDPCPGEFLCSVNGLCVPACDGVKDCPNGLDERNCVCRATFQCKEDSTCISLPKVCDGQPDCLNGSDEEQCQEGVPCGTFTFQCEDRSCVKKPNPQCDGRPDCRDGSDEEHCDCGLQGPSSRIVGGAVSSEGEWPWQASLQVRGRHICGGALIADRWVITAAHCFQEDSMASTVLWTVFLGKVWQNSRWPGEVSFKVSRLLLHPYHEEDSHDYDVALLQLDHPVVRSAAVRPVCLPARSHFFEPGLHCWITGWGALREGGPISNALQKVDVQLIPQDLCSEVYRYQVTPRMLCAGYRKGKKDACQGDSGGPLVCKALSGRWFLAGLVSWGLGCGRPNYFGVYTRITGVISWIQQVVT

Kallikrein 5 = molecular target: T9, Kallikrein 5 (Human, UniProt Q9Y337 67-293)
T9 sequence: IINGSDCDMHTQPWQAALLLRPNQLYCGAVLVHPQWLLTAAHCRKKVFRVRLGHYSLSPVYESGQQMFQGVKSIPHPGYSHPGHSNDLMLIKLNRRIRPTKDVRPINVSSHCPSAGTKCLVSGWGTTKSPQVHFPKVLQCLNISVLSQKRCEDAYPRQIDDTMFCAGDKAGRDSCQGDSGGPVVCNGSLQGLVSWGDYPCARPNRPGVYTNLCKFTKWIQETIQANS

Plasma Kallikrein = Plasma Kallikrein (Human, UniProt P03952 20-638)
Kallikrein 7 = molecular target: T10, Kallikrein 7 (Human, UniProt P49862 23-252)
T10 sequence: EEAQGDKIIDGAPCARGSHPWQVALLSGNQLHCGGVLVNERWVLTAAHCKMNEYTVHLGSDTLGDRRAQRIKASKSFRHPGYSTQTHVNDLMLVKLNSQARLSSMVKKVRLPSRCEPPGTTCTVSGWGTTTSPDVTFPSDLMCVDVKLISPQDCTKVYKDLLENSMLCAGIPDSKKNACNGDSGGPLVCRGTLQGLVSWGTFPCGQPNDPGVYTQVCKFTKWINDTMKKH

Chymase = Chymase (Human, UniProt P23946 22-247)
Cathepsin C = Cathepsin C (Human, UniProt P53634 25-463)

B1: WT MQ1 peptide (prior art) (peptide)
peptide: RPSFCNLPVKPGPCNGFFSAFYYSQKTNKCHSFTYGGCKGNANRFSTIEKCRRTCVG
Compound IC50 (M), protease activity assay (Caspase 10): 9.33e-06 M
Compound IC50 (M), protease activity assay (Tryptase beta 2): 3.63e-06 M
Compound IC50 (M), protease activity assay (Papain): 1.76e-05 M
Compound IC50 (M), protease activity assay (Trypsin): 3.69e-06 M
Compound IC50 (M), protease activity assay (Caspase 11): 1.4e-05 M
Compound IC50 (M), protease activity assay (Caspase 2): 4.25e-05 M
Compound IC50 (M), protease activity assay (Caspase 9): 8.94e-06 M
Compound IC50 (M), protease activity assay (Caspase 1): 3.71e-05 M
Compound IC50 (M), protease activity assay (Cathepsin G): 8.54e-06 M
Compound IC50 (M), protease activity assay (Chymotrypsin): 2.74e-06 M
Compound IC50 (M), protease activity assay (Matriptase 2): 1.16e-07 M
Compound IC50 (M), protease activity assay (Kallikrein 5): 5.77e-06 M
Compound IC50 (M), protease activity assay (Plasma Kallikrein): 3.89e-06 M
Compound IC50 (M), protease activity assay (Kallikrein 7): 3.65e-06 M
Compound IC50 (M), protease activity assay (Chymase): 1.82e-05 M
Compound IC50 (M), protease activity assay (Cathepsin C): 4.59e-05 M
